Results deposited as PubChem BioAssay AID624099 (ICCB-Longwood, 2012).

Screen: 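Knock-downs relieving repression by E2 of an HPV18 LCR luciferase reporter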 (primary screen)
Cells: human C33A cervical carcinoma cells (HPV-negative) stably expressing BPV1 E2 and an HPV18 LCR luciferase reporter
Reagents: siRNA pool against human genes, 40 nM
Duration: 72 h
Measurement: 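Per-well luciferase luminescence, z-scored on each plate against the plate mean and SD with control wells left out, then averaged across three replicate plates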
Reading the numbers: mean z-score and z-score: higher = stronger reporter signal, weaker E2 silencing
Call rule: 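Mean z ≥ 2 together with z ≥ 2 in two or more of the three replicates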
Shown is an unselected part of about 21,000 reagents tested. In the full data, 497 (2.4%) got an active call. 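Higher z means weaker E2 silencing; only reporter increases were scored, and knock-downs that hurt cell survival may mask genuine repressor factors.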 Reagent sequences are not shown.

With CRACR2B (calcium release activated channel regulator 2B), what does the deposit list?
mean z-score: 0.19; z-score, replicate A: 0.25; z-score, replicate B: 0.31; z-score, replicate C: 0; Call: inactive

Which result is listed for NCR3 (natural cytotoxicity triggering receptor 3)?
mean z-score: 0.1; z-score, replicate A: -0.18; z-score, replicate B: 0.33; z-score, replicate C: 0.14; Call: inactive

Which result is listed for LOC402157 (retired record)?
mean z-score: 0.05; z-score, replicate A: 0.4; z-score, replicate B: -0.35; z-score, replicate C: 0.1; Call: inactive

How did the screen score PUM1 (pumilio RNA binding family member 1)?
mean z-score: -2.01; z-score, replicate A: -2.09; z-score, replicate B: -2.01; z-score, replicate C: -1.93; Call: inactive

Which result is listed for ULBP2 (UL16 binding protein 2)?
mean z-score: -0.75; z-score, replicate A: -0.8; z-score, replicate B: -0.96; z-score, replicate C: -0.48; Call: inactive

What did the screen give for AATBC (apoptosis associated transcript in bladder cancer)?
mean z-score: 1.22; z-score, replicate A: 1.39; z-score, replicate B: 1.03; z-score, replicate C: 1.24; Call: inactive

For TENM4 (teneurin transmembrane protein 4), what was measured?
mean z-score: -0.23; z-score, replicate A: -0.3; z-score, replicate B: -0.41; z-score, replicate C: 0.03; Call: inactive

With RPSAP48 (ribosomal protein SA pseudogene 48), what was measured?
mean z-score: -0.63; z-score, replicate A: -0.19; z-score, replicate B: -0.91; z-score, replicate C: -0.8; Call: inactive

How did the screen score ATP5ME (ATP synthase membrane subunit e)?
mean z-score: 1.07; z-score, replicate A: 0.88; z-score, replicate B: 1.08; z-score, replicate C: 1.25; Call: inactive

Which result is listed for CDIPT (CDP-diacylglycerol--inositol 3-phosphatidyltransferase)?
mean z-score: -1.24; z-score, replicate A: -1.22; z-score, replicate B: -1.14; z-score, replicate C: -1.36; Call: inactive

Which result is listed for TKT (transketolase)?
mean z-score: 2.7; z-score, replicate A: 2.98; z-score, replicate B: 2.46; z-score, replicate C: 2.66; Call: active

For DYDC2 (DPY30 domain containing 2), how do the results read?
mean z-score: 1.68; z-score, replicate A: 1.79; z-score, replicate B: 1.86; z-score, replicate C: 1.37; Call: inactive

3 consecutive entries from above:
CRACR2B (calcium release activated channel regulator 2B) | mean z-score = 0.19; z-score, replicate A = 0.25; z-score, replicate B = 0.31; z-score, replicate C = 0; Call = inactive
NCR3 (natural cytotoxicity triggering receptor 3) | mean z-score = 0.1; z-score, replicate A = -0.18; z-score, replicate B = 0.33; z-score, replicate C = 0.14; Call = inactive
LOC402157 (retired record) | mean z-score = 0.05; z-score, replicate A = 0.4; z-score, replicate B = -0.35; z-score, replicate C = 0.1; Call = inactive

Additional entries follow.
With EQTN (equatorin), what was measured?
mean z-score: -1.47; z-score, replicate A: -1.67; z-score, replicate B: -1.53; z-score, replicate C: -1.22; Call: inactive

With RABEP2 (rabaptin, RAB GTPase binding effector protein 2), what was measured?
mean z-score: 0.04; z-score, replicate A: 0.13; z-score, replicate B: -0.32; z-score, replicate C: 0.31; Call: inactive

For MPDZ (multiple PDZ domain crumbs cell polarity complex component), what does the deposit list?
mean z-score: 0.86; z-score, replicate A: 0.89; z-score, replicate B: 0.99; z-score, replicate C: 0.7; Call: inactive

What did the screen give for GANAB (glucosidase II alpha subunit)?
mean z-score: 0.46; z-score, replicate A: 0.5; z-score, replicate B: 0.13; z-score, replicate C: 0.74; Call: inactive

Which result is listed for ZNF843 (zinc finger protein 843)?
mean z-score: 0.33; z-score, replicate A: 0.13; z-score, replicate B: 0.55; z-score, replicate C: 0.33; Call: inactive

With ZDHHC18 (zDHHC palmitoyltransferase 18), what was measured?
mean z-score: 2.72; z-score, replicate A: 2.88; z-score, replicate B: 2.79; z-score, replicate C: 2.49; Call: active

What did the screen give for LGI2 (leucine rich repeat LGI family member 2)?
mean z-score: 1.82; z-score, replicate A: 1.67; z-score, replicate B: 2.3; z-score, replicate C: 1.49; Call: inactive

Which result is listed for GPR6 (G protein-coupled receptor 6)?
mean z-score: 0.36; z-score, replicate A: 0.32; z-score, replicate B: 0.34; z-score, replicate C: 0.42; Call: inactive

What did the screen give for AFM (afamin)?
mean z-score: 0.17; z-score, replicate A: 0.52; z-score, replicate B: 0.09; z-score, replicate C: -0.08; Call: inactive
